Reference: patent US7749983B2, “Metabolically stable alkoxyalkyl esters of antiviral or antiproliferative phosphonates, nucleoside phosphonates and nucleoside phosphates” (priority 2006, dated 2010)

Legend:
Assay type in all cases: cell-based
[1] = tested on: Ectromelia Virus (ECTV, MOS strain)
[2] = tested on: cowpox virus, strain Brighton
[3] = tested on: vaccinia virus strain, Copenhagen

Molecule	Ectromelia Virus SI [1]	Cowpox Brighton SI (Selectivity Index) = CC50/EC50 [2]	Vaccinia Copenhagen SI (Selectivity Index) = CC50/EC50 [3]
CC(C)CCCCCCCCCCCCCCOCCCOP(=O)(O)CO[C@H](CO)Cn1ccc(N)nc1=O [Compound 15M-HDP-CDV, 15-methyl-hexadecyloxypropyl cidofovir]	391	45	152
CCCCCCCCCCCCCCCCCCOCCOP(=O)(O)CO[C@H](CO)Cn1cnc2c(N)ncnc21 [ODE-(S)-HPMPA, reference compound]		175	263
CC(C)CCCCCCCCCCCCCCCCOCCOP(=O)(O)CO[C@H](CO)Cn1cnc2c(N)ncnc21 [17M-ODE-(S)-HPMPA, 2-(17-methyloctadecyloxy)ethyl (S)-HPMPA]		73	89
17-methyl-octadecyloxyethyl cidofovir [Compound 17M-ODE-CDV]	54	300	469
CCCCCCCCCCCCCCCCOCCOP(=O)(O)COC(CO)Cn1cnc2c(N)ncnc21 (centres unmarked) [HDE-HPMPA, reference compound]	50		
14-methyl-pentadecyloxypropyl cidofovir [Compound 14M-PDP-CDV]	137	139	129
CC(C)CCCCCCCCCCCCOCCCOP(=O)(O)CO[C@H](CO)Cn1ccc(N)nc1=O [Compound 13M-TDP-CDV, 13-methyl-tetradecyloxypropyl cidofovir]	161	205	315
CC(C)CCCCCCCCCCCCCCOCCOP(=O)(O)CO[C@H](CO)Cn1cnc2c(N)ncnc21 [15M-HDE-HPMPA, 3-(15-methylhexadceyloxy)ethyl (S)-HPMPA]	3,588		
CC(C)CCCCCCCCCCCCCCOCCCOP(=O)(O)CO[C@H](CO)Cn1cnc2c(N)ncnc21 [15M-HDP-(S)-HPMPA, 3-(15-methylhexadecyloxy)propyl (S)-HPMPA]		529	2,292
CCCCCCCCCCCCCCCCOCCCOP(=O)(O)CO[C@H](CO)Cn1ccc(N)nc1=O [HDP-CDV, hexadecyloxypropyl-CDV, reference compound]	42		
CCCCCCCCCCCCCCCCOCCCOP(=O)(O)CO[C@H](CO)Cn1cnc2c(N)ncnc21 [HDP-(S)-HPMPA, reference compound]		1767	3,180
CC(C)CCCCCCCCCCCOCCCOP(=O)(O)CO[C@H](CO)Cn1ccc(N)nc1=O [Compound 12M-TrDP-CDV, 12-methyl-tridecyloxypropyl cidofovir]	57	49	63
